Measurements reported in PubChem BioAssay AID1259414 (Drosophila RNAi Screening Center, 2018)
The deposit covers about 24,000 reagents; shown is a random part of those that have a named target and a result. In the full data, about 1,210 (5%) are marked active. 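Inactive calls also include excluded dsRNAs with several or no targets, genes unexpressed in JW18, and well A1, regardless of score.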 Reagent sequences are not shown.

Test: 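Genome-wide screen for host control of endosymbiont load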 (primary screen)
System: Drosophila JW18 cells infected with Wolbachia
Reagents: long dsRNA against Drosophila genes, 0.25 µg dsRNA per well of a 384-well plate
Timing: 5 days
Treatment: cells persistently infected with Wolbachia before knock-down; no added drug
Measurement: 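Automated imaging of bacterial rRNA staining divided by host cell count, reported as plate-normalised robust z-score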
Scale: Wolbachia per cell robust z: higher = more Wolbachia per host cell than the plate typical
Active means: 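Hit when robust z is 1.5 or more, or -1.5 or less, in at least two of three replicates; excludes dsRNAs with several or no targets, genes not expressed in JW18 and well A1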

Depletion of dco [DRSC16929] came out at: Wolbachia per cell robust z, rep 1 = 0.901; Wolbachia per cell robust z, rep 2 = -0.345; Wolbachia per cell robust z, rep 3 = -1.16; inactive.
Depletion of dco [DRSC29211] gave: Wolbachia per cell robust z, rep 1 = 0.231; Wolbachia per cell robust z, rep 2 = 0.725; Wolbachia per cell robust z, rep 3 = 0.263; inactive.
Depletion of CG9518 [DRSC20194] resulted in: Wolbachia per cell robust z, rep 1 = -0.0854; Wolbachia per cell robust z, rep 2 = -0.942; Wolbachia per cell robust z, rep 3 = 1.02; inactive.
Depletion of CG9518 [DRSC27096] gave: Wolbachia per cell robust z, rep 1 = 0.0595; Wolbachia per cell robust z, rep 2 = -1.57; Wolbachia per cell robust z, rep 3 = -0.534; inactive.
LManVI [DRSC03224] scored Wolbachia per cell robust z, rep 1 = 0.696; Wolbachia per cell robust z, rep 2 = -0.931; Wolbachia per cell robust z, rep 3 = 0.726; inactive.
For LManVI [DRSC27521] the deposit lists Wolbachia per cell robust z, rep 1 = -3.92; Wolbachia per cell robust z, rep 2 = -0.463; Wolbachia per cell robust z, rep 3 = 0.0253; inactive.
For eIF2A [DRSC11825], the entry reads Wolbachia per cell robust z, rep 1 = 0.119; Wolbachia per cell robust z, rep 2 = -0.0568; Wolbachia per cell robust z, rep 3 = -0.216; inactive.
Depletion of Scr [DRSC23141] gave: Wolbachia per cell robust z, rep 1 = -1.73; Wolbachia per cell robust z, rep 2 = 0.12; Wolbachia per cell robust z, rep 3 = 0.555; inactive.
For Scr [DRSC29201], the values are Wolbachia per cell robust z, rep 1 = 0.145; Wolbachia per cell robust z, rep 2 = 0.649; Wolbachia per cell robust z, rep 3 = 2.28; inactive.
Against CG6700 [DRSC02980] the deposit lists Wolbachia per cell robust z, rep 1 = 0.0598; Wolbachia per cell robust z, rep 2 = -0.171; Wolbachia per cell robust z, rep 3 = -0.107; inactive.
For CG6700 [DRSC25626], the entry reads Wolbachia per cell robust z, rep 1 = 1.69; Wolbachia per cell robust z, rep 2 = 1.16; Wolbachia per cell robust z, rep 3 = 0.638; inactive.
After knock-down of CG14406 [DRSC19592] the results were Wolbachia per cell robust z, rep 1 = -5.11; Wolbachia per cell robust z, rep 2 = 0.433; Wolbachia per cell robust z, rep 3 = 0.236; inactive.
For CG14406 [DRSC41531] the deposit lists Wolbachia per cell robust z, rep 1 = 0.718; Wolbachia per cell robust z, rep 2 = -0.531; Wolbachia per cell robust z, rep 3 = -1.73; inactive.

Quoted from above, 2 entries:
dco [DRSC16929]: Wolbachia per cell robust z, rep 1 = 0.901; Wolbachia per cell robust z, rep 2 = -0.345; Wolbachia per cell robust z, rep 3 = -1.16; outcome = inactive
dco [DRSC29211]: Wolbachia per cell robust z, rep 1 = 0.231; Wolbachia per cell robust z, rep 2 = 0.725; Wolbachia per cell robust z, rep 3 = 0.263; outcome = inactive
